Patent publication US12559545 (VANDERBILT UNIVERSITY, dated 2026)

Target: NiVB-G (Nipah virus, strain Bangladesh)
Test: ELISA [panel B]

B1: HENV-222 (antibody, V domains shown)
VH: QVQLQESGPGLVKPSETLSLTCTVSGGSIDSYYWSWIRQPAGKGLEWIGRIYPSGTTNYNPSLKSRVTMSVDTSKNQFSLKVTSVTAADTAVYYCARMQTGFGSSLFFVPYFDNWGQGTLVTVSS
VL: EIVLTQSPATLSLSPGERATLSCRASQSVSSYLAWYQQKPGQAPRLLIYDASNRATGIPARFSGSGSGTDFTLTISSLEPEDFAVYYCQQRGNWPLTFGGGTKVEIK
- EC50: 5.8 nM
